Patent US7642277B2, “Non-nucleoside reverse transcriptase inhibitors” (Boehringer Ingelheim International GmbH, priority 2002, dated 2010)

Key:
[1] = biological target: HIV-1 RT enzyme (wild type) (Human immunodeficiency virus type 1 group M subtype B, UniProt P04585); assay: Reverse transcriptase (RT) enzymatic assay (IC50), PicoGreen fluorescence, wild type; assay type: biochemical; conditions: read-out: IC50 WT
[2] = test system: HIV-1 resistant mutant K103N/Y181C in C8166 LTRluc cells; assay: C8166 HIV-1 luciferase assay (EC50), resistant mutant; assay type: cell-based; conditions: read-out: EC50 K103N/Y181C, C8166 HIV-1 luciferase assay (no *)

Row | SMILES | IC50 [1] [nM] | EC50 [2] [nM]
1 | F/C(=C\c1ccccc1Cl)CSc1nnnn1-c1cccc2ccccc12 | > 100 | 
2 | CC(C)(C)c1ccc(-n2nnnc2SCC(=O)Nc2ccccc2Cl)c(Cl)c1 |  | > 100
3 | F/C(=C/c1ccccc1Cl)CSc1nnnn1-c1cccc2ccccc12 | > 100 | 
4 | Cc1ccc(-c2ccccc2CCC(=O)Nc2ccccc2Cl)c(Cl)c1 | > 100 | 
